Two molecules from patent US20260069689A1, “ANTI-SARS-COV-2-SPIKE GLYCOPROTEIN ANTIBODIES AND ANTIGEN-BINDING FRAGMENTS” (Regeneron, published 2026) can be followed below.

Assay [1] has as its target T1, SARS-CoV2 Spike ecto foldon Trimer expressed with a C-terminal myc-myc-hexahistidine (SARS-CoV-2, UniProt P0DTC2 14-1213).
T1 construct: extracellular domain
The experiment in a line: SPR Biacore, mAb captured by anti-hFc, 37C. In general terms: Surface plasmon resonance follows binding to a sensor surface in real time, without labels.

The target in assay [2] is T1, SARS-CoV2 Spike ecto foldon Trimer …. As to the kind of experiment: SPR Biacore, mAb captured by anti-hFc, 25C.
Assay [3] has as its target T2, SARS-COV-2 RBD extracellular domain expressed with a C-terminal mouse IgG2a Fc (SARS-CoV-2). The experiment in a line: Biacore SPR, mAb captured on anti-hFc, 37 C.
For assay [4], the target named is T2, SARS-COV-2 RBD extracellular domain …. As to the kind of experiment: Biacore SPR, mAb captured on anti-hFc, 25 C.

B1: mAb14260 (antibody, V domains shown)
VH: EVQLVESGGGLVQPGGSLRLSCAASGFTFSIYEMNWVRQAPGKGLEWVSYITSSGFTIYYADSVKGRFTISRDNAKNSLYLQMHSLRAEDTAVYYCATSSSSGYYFDYWGQGTLVTVSS
VL: not shown
As a reminder, the Kd is the free concentration of one partner at which half of the binding sites on the other are occupied at equilibrium, for simple one-to-one binding. High values mean weaker binding, low ones tighter binding. Broadly, the koff is the rate constant with which the complex falls apart. Low readings indicate slow dissociation, high ones fast dissociation. One may read the kon as a measure of how fast the partners come together. Broadly, the t½ is the time needed for the level to fall by half in the phase considered. On to B1, for which, in assay [1], binding was put at a Kd of 60.4 pM, the koff was determined as 5.73e-05 s⁻¹, the on-rate (kon) is 949000 M⁻¹ s⁻¹ and the t½ came out at 3.36 h. Besides, in assay [2], the Kd worked out at 38.6 pM, the koff came to 5.87e-05 s⁻¹, the kon came out at 1.52e+06 M⁻¹ s⁻¹ and the t½ amounted to 3.28 h.

B2: mAb14260 (antibody, V domains shown)
VH: B1 VH
VL: not shown
In assay [3], B2 registered a Kd of 54 pM, an off-rate constant (koff) of 0.000104 s⁻¹, a kon of 1.93e+06 M⁻¹ s⁻¹ and a t½ of 1.84 h. In assay [4], this molecule returned an equilibrium dissociation constant (Kd) of 44.3 pM, a koff of 8.7e-05 s⁻¹, an association rate constant (kon) of 1.96e+06 M⁻¹ s⁻¹ and a t½ of 2.21 h.
